# Laboratory results: patent publication US10954262B2, “Tunicamycin analogues” (Oxford University Innovation Limited, priority 2017, dated 2021)
# Assays:
# [1] = system: Bacillus cereus (ATCC11778); type: cell-based; settings: B. cereus; minimal lethal dose / MIC; 800 μg/mL used when no cytotoxicity at 400 μg/mL
# [2] = system: Mycobacterium tuberculosis H37RV; assay: MIC in GAST/Fe and 7H9/ADC/Tw growth medium at 1 and 2 weeks; type: cell-based; settings: minimal lethal dose / MIC
# [3] = M. tuberculosis (2 weeks in 7H9/ADC/Tw)
# [4] = M. tuberculosis (2 weeks in GAST/Fe)
Structure (SMILES),RTI (Relative Therapeutic Index) [1],"RTI (Relative Therapeutic Index) [2, 3]","RTI (Relative Therapeutic Index) [2, 4]"
"CC(C)=CCC[C@H](C)CC(=O)NC1C(OC2OC(C[C@@H](O)[C@H]3O[C@@H](n4ccc(=O)[nH]c4=O)[C@H](O)[C@@H]3O)C(O)C(O)[C@H]2NC(=O)C[C@@H](C)CCC=C(C)C)OC(CO)[C@@H](O)C1O (stereo partly drawn) [Compound E1, Di-N-citronoyl-tunicamycin]",8,36,71
"CCCCCCC(=O)NC1C(OC2OC(C[C@@H](O)[C@H]3O[C@@H](n4ccc(=O)[nH]c4=O)[C@H](O)[C@@H]3O)C(O)C(O)[C@H]2NC(=O)CCCCCC)OC(CO)[C@@H](O)C1O (stereo partly drawn) [Compound E2, Di-N-heptanoyl tunicamycin]",8,107,286
"CCCCCCCC(=O)NC1C(OC2OC(C[C@@H](O)[C@H]3O[C@@H](n4ccc(=O)[nH]c4=O)[C@H](O)[C@@H]3O)C(O)C(O)[C@H]2NC(=O)CCCCCCC)OC(CO)[C@@H](O)C1O (stereo partly drawn) [Compound E3, Di-N-octanoyl-tunicamycin]",128,571,2286
"CCCCCCCCC(=O)NC1C(OC2OC(C[C@@H](O)[C@H]3O[C@@H](n4ccc(=O)[nH]c4=O)[C@H](O)[C@@H]3O)C(O)C(O)[C@H]2NC(=O)CCCCCCCC)OC(CO)[C@@H](O)C1O (stereo partly drawn) [Compound E4, Di-N-nonanoyl-tunicamycin]",1026,2286,20000
"CCCCCCCCCC(=O)NC1C(OC2OC(C[C@@H](O)[C@H]3O[C@@H](n4ccc(=O)[nH]c4=O)[C@H](O)[C@@H]3O)C(O)C(O)[C@H]2NC(=O)CCCCCCCCC)OC(CO)[C@@H](O)C1O (stereo partly drawn) [Compound E5, Di-N-decanoyl-tunicamycin]",2051,571,2286
"CCCCCCCCCCC(=O)NC1C(OC2OC(C[C@@H](O)[C@H]3O[C@@H](n4ccc(=O)[nH]c4=O)[C@H](O)[C@@H]3O)C(O)C(O)[C@H]2NC(=O)CCCCCCCCCC)OC(CO)[C@@H](O)C1O (stereo partly drawn) [Compound E6, Di-N-undecanoyl-tunicamycin]",1026,143,286
"CCCCCCCCCCCC(=O)NC1C(OC2OC(C[C@@H](O)[C@H]3O[C@@H](n4ccc(=O)[nH]c4=O)[C@H](O)[C@@H]3O)C(O)C(O)[C@H]2NC(=O)CCCCCCCCCCC)OC(CO)[C@@H](O)C1O (stereo partly drawn) [Compound E7, Di-N-dodecanoyl-tunicamycin]",16,27,71
"NC1C(O)[C@H](O)C(CO)O[C@@H]1OC1O[C@H](C[C@@H](O)[C@@H]2O[C@@H](n3ccc(=O)[nH]c3=O)[C@H](O)[C@@H]2O)C(O)C(O)[C@H]1N (stereo partly drawn) [D, α-D-glucosamine-(1″-11′)-tunicamyl Uracil Dihydrochloride]",8,13,13

# Where a name gives a salt, the structure may show the parent alone.
